{"source": "PubChem BioAssay AID602346", "about": "(Broad Institute, 2012)", "note": "The entries are a selection whose mix differs from that of the whole data set. Activity calls are given as the source filed them. Rule as the data show it: active = inhibition above about 50% (passing the limit was not always enough); inconclusive = no clear call, values can overlap the other calls; inactive = below about 31%."}
{"test": "blockers of Vif multimerization in cells – imaging, HEK293T, single point, primary screen (AID 602346)", "details": "Vif self-association by quenched fluorescence, 24 h, at 7.49 µM, hits give high values"}
{"smiles": "O=C(NCC1(N2CCCCC2)CCCCC1)c1ccc(=O)[nH]c1", "inhibition": "inactive: -0.603%"}
{"smiles": "CCCCn1nnnc1C(c1cccs1)N1CCC(n2c(=O)[nH]c3ccccc32)CC1", "note": "(stereo unspecified)", "inhibition": "inactive: -3.88%"}
{"smiles": "O=C(NCC1(N2CCCCC2)CCCCC1)c1cccs1", "inhibition": "inactive: 2.79%"}
{"smiles": "O=C(OC1CN2CCC1CC2)C1c2ccccc2Oc2ccccc21", "note": "(stereo unspecified)", "inhibition": "inactive: -7.35%"}
{"smiles": "N#CC1(Nc2ccccc2)CCN(Cc2ccccc2)CC1", "inhibition": "inactive: 1.05%"}
{"smiles": "O=C(NCC1(N2CCCCC2)CCCCC1)c1ccc(Cl)s1", "inhibition": "inactive: -1.05%"}
{"smiles": "COc1ccc(Cl)cc1C(=O)NCC1(N2CCOCC2)CCCCC1", "inhibition": "inactive: -2.63%"}
{"smiles": "CCOC(=O)N1CCC(Nc2ccc(OC)cc2)CC1", "inhibition": "inactive: -13.1%"}
{"smiles": "CCCCn1nnnc1C(c1ccc(OC)cc1)N1CCC(n2c(=O)[nH]c3ccccc32)CC1", "note": "(stereo unspecified)", "inhibition": "inactive: -2.95%"}
{"smiles": "Cc1cc(C)cc(N(C(=O)c2ccccc2)C2CCN(C(=O)OC(C)(C)C)CC2)c1", "inhibition": "inactive: -14.7%"}
{"smiles": "O=C(NCC1(N2CCOCC2)CCCCC1)c1cc2ccccc2o1", "inhibition": "inactive: -3.81%"}
{"smiles": "O=C(NCC1(N2CCCCC2)CCCCC1)c1ccc(F)cc1", "inhibition": "inactive: 12.3%"}
{"smiles": "O=P1(N(CCCl)CCCl)SCCCS1", "inhibition": "inactive: 2.33%"}
{"smiles": "CCCCn1nnnc1C(c1cc2ccccc2o1)N1CCC(n2c(=O)[nH]c3ccccc32)CC1", "note": "(stereo unspecified)", "inhibition": "inactive: -0.662%"}
{"smiles": "CCCCOc1ccc(C(=O)NCC2(N3CCOCC3)CCCCC2)cc1", "inhibition": "inactive: -2.6%"}
{"smiles": "CCOC(=O)N1CCC(Nc2ccc(F)cc2)CC1", "inhibition": "inactive: -4.52%"}
{"smiles": "O=C1CCN(Cc2ccccc2)CC1", "inhibition": "inactive: 7.28%"}
{"smiles": "CCOc1ccc(C)cc1CN(CCCl)CCCl", "inhibition": "inactive: 2.46%"}
{"smiles": "COc1cc(C(=O)NCC2(N(C)C)CCCCC2)ccc1OC(F)F", "inhibition": "inactive: 0.787%"}
{"smiles": "CCOC(=O)N1CCC(Nc2cccc(C)c2)CC1", "inhibition": "inactive: 2.94%"}
{"smiles": "O=c1[nH]c2ccccc2n1C1CCN(C(c2cccc3ccccc23)c2nnnn2C2CCCC2)CC1", "note": "(stereo unspecified)", "inhibition": "inactive: 3.45%"}
